From patent publication US20120207760A1, “Compositions and Methods for the Therapy and Diagnosis of Influenza” (THERACLONE SCIENCES, published 2012)

B1: TCN-552 (5249_I23) (antibody, V domains shown)
VH: QVQVVQSGAEVKKPGSSVRVSCQASGGTFMNYAIIWVRRAPGQGLEWMGGIIPVFPTPNYAQMFQGRVTISTDESRSTSFLELTNLRYEDTAVYYCARRIYHGGNSGFDFWGQGTLVTVSS
VL: EIVLTQSPATLSLSPGERATLSCRASQSVGNYLAWYQQKPGQAPRLLIYDSSNRAPGIPARFSGSGSGTDFTLTISSLAPEDFAVYYCQQRSKWPPMYSFGHGTKLEIK
B2: TCN-560 (5084_P10) (antibody, V domains shown)
VH: EVQLVESGGGLVQPGGSLRLSCAASGFIFRNYWMSWVRQAPGKGLEWVANIKQDGREKYYVDSLRGRVNISRDNAENSLYLHMNSLRVEDTAVYFCARARMVVVTGDGFDVWGHGTMVTVSS
VL: DIQMTQSPSSLSASVGDRVTITCRASQNIKRYFNWYQQKPGKAPKLLIYAASNLENGVPSRFSGSGSGTDFTLTISSLQPEDFATYYCQQSFSKSWTFGQGTNVDIK
B3: TCN-548 (5092_P01) (antibody, V domains shown)
VH: QVQLQESGPGLVKPSETLSLTCTVSSGPMSDYYWSWIRQPPGKGLEWIGHVSVSHGGRTKSNPSVMSRVTISVETSKNQFSLKLTSVTAADTAVYYCARLNYYDRSGYHSPDGPSNNWFDPWGQGTLVTVSS
VL: DIVMTQSPDSLAVSLGERATINCKSSQSVLYSSNNKNYLAWYQQKPGQPPKLLIYWASTRESGVPDRISGSGSGADFTLTISSLQAEDVAVYYCQQYFATPRTFGQGTKVEIK
B4: TCN-549 (5092_P04) (antibody, V domains shown)
VH: QVQLVQSGAEVKKPGASVKVSCKASGYTFTGYYMHWVRQAPGQGLEWMGWINPNSGDTNYAQKFQGRVTMTRDTSITTAYMELSSLRSDDTAVYYCARDSPYSSSWSFFDYWGQGPLVTVSS
VL: B3 VL with N37S, Y38H, I68F, A75T, T80I, F98Y, A99F, T100S, R102L, Q106G
B5: TCN-545 (5082_I15) (antibody, V domains shown)
VH: QVQLQQWGAGLLKPSETLSLSCAVFGGSFSDYYWTWIRQPPGKGLEWIGEIKHSGRTNYNPSLESRVTISVDTSKNQFSLKLSSVTAADTAIYYCARGTDPDTEGYCRSGSCSAFDFWGQGTLVTVSS
VL: EIVLTQSPGTLSLSPGERATLSCRASHFVNYRSLAWYQQTPGQVPRLLIYGASTRATGIPDRFSGSGSGTDFTLTISRLEPEDFAVYFCQQYGGSPRYTFGQGTRLEIK
B6: TCN-556 (5089_K12) (antibody, V domains shown)
VH: QVQLVQSGAEVKKPGASVKVSCKASGYTFIGYDMHWVRQAPGQGLEWMGWINAKRGGTNYAQKFQGRVTMTRDTSISTAYMELNSLRSDDTAVYYCARGVGSRTTIFGVLNPEFDYWGQGTLVTVSS
VL: QSALTQPPSASGSPGQSVTISCTGSSSDVGGYDYVSWYQQHPGKAPKLLIYEVTKRPSGVPDRFSGSKSGNTASLTVSGLQAEDEADYYCSSYAGNYNHVFGPGTKVTVL
B7: TCN-544 (5082_A19) (antibody, V domains shown)
VH: QVQLQESGPGLVKPSETLSLTCTVSRGSIGHYFWSWIRQPPGKGLEWIGYISYSGSTKYNPSLRSRVTISVDTSKNQFSLNLNSVTATDTALYYCAREDYDILTGAGPGMEVWGQGTTVTVSS
VL: QSMLTQPPSASGTPGQRVTISCSGSSSNIGSNTVNWFKHLPGTAPKLLIYRNDLRPSGVPDRFSGSKSGTSASLAISGLQSEDEADYYCATWDDSLNGFYVFGTGTKVTVL
B8: TCN-543 (5081_G23) (antibody, V domains shown)
VH: QVHLVQSGAEVRKPGDSVKVSCKTSGYTFSTYPVAWVRQVPGQGLEWMGWISTYNGNTNFAQNFQGRVTLTTDTTTNTAYMEVRSLKFDDTAVYYCARVEGSYRDFWNNQNRFDPWGQGTLVTVSS
VL: SYVLTQPPSVSVAPGQTARISCGGSNIGGKSVHWYQQKPGQAPVLVVYDDSGRPSGIPERFSGSNSGDTATLTISRVEAGDEADYFCQVWDNFGGVFGTGTKVTVL
B9: TCN-550 (5096_F06) (antibody, V domains shown)
VH: QVQLQESGPGLVKPSETLSLTCTVSGASINSHYWSWIRQPPGKGLEWIGYVYYSGSTTYNPSLKSRVTLSVDTSKNQFSLNLSSVTAADTAFYYCARHPYDVLTGSGDWFDPWGQGTLVTVSS
VL: SYVLTQAPSVSVAPGQTARITCGGNAIGSKKVHWYQHKAGQAPVLVVYDDTDRPSGIPERFSGSNSWSTATLTINRVEAGDEADYYCQVWDFTIDHVVFGGGTKLTVL
B10: TCN-557 (5081_A04) (antibody, V domains shown)
VH: QVQLVQSGAEVKKPGASVKVSCKASGHTFTGYYIHWVRQAPGQGLEWMGWINPDSGATSSAQNFQGRVTMTGDTSSSTAYMELSRLSFDDTAVYYCARVLFTSPFDFWGEGTLVTVSS
VL: QAVVTQEPSLAVSPGGTVTLTCGSSTGAVTRGHYPYWFQQKPGQAPRALIYDSAGNRHSWTPARFSGSLLGGKAALTLSGAQPEDEAEYYCLLSYSGVWVFGGGTKLTVL
B11: TCN-542 (5079_A16) (antibody, V domains shown)
VH: QVQLQESGPGLVKPSQTLSLTCTVSGGSISSGNYYWNWVRQHPGKGLEWIGYIYYRGSTFYNPSLKSRVTISIDTSKNQFSLRLSSVTAADTAVYYCAKDTRSSLDNYQYGMDVWGQGTTVTVSS
VL: QTVVTQEPSLTVSPGGTVTLTCASSTGAVTSSYFPNWFQQKPGQAPRPLIYSTTIRHSWTPARFSGSLLGGKAALTLSGVQPEDEADYYCLLYSGGDPVAFGGGTKLTVL
B12: TCN-551 (5243_D01) (antibody, V domains shown)
VH: EVQLVQSGSEVKKPGESLKISCKGSGYSFSNYWIGWVRHMPGKGLEWMGIIYPGDSDTRYSPSFQGQVTMSADKSSSTVYLQWSSLKASDTAIYYCARRGGHSFGYGSGGDTHSEFDSWGQGTLVTVSS
VL: QSVLTQSPSVSAAPGQKVTISCSGSDSNIGDYFVCWYQHLPGKPPQLLIYENNKRPSGIPDRFSGSKSGTSATLGITGIQTGDEADYYCATWDGSLSAWVFGGGTKLTVL
B13: TCN-553 (5261_C18) (antibody, V domains shown)
VH: QVQVVQSGTEVKKPGSSVKVSCQTSGGRFMSYAITWVRQAPGQGLEWMGGIVPVFGTANYAQKFQGRVTITTDDSTRTAYMELSSLRSEDTAVYYCGFRYGSGYGFDSWGQGTLVTVSS
VL: EIVLTQSPGTLSLSPGERATLSCRASQSVSSSYLAWYQKKPGQAPRLLIYGASTRATGIPDRFTGSGSGTDFTLSISRLEPEDFAVYYCQHFGTSVFTFGGGTKVEIK
B14: TCN-546 (5089_L08) (antibody, V domains shown)
VH: QVQLQQWGAGLLKPSETLSLTCGVYGGSLSDYYWSWIRQPPGKGLEWIGEINHSGGTNYNPSLKRRVTISVDTSKKQFSLKMNSVTAADTAVYYCARGTDPDTEVYCRAGNCAAFDFWGQGTLVTVSS
VL: EIVLTQSPGTLSLSPGERATLSCRASHFVIGRAVAWYQQKPGQAPRLLIYGASSRATGIPDRFSGSGSGTDFTLTISRLETEDFAVFYCQHYGSSPRYAFGQGTKLEIK
B15: TCN-547 (5092_F11) (antibody, V domains shown)
VH: QVQLQESGPGLVKPSQTLSLTCTVSGDSISSVDHYWSWIRQHPVKGLEWIGFMYYSASTYYNPSLKSRVTISTDTSKNQFSLRLSSVTAADTAVYYCARGTCAGDCSLHYYYYGLDVWGQGRTVTVSS
VL: DIQMTQSPSSLSASVGDRVTITCRASQSISSYLNWYQHKPGKAPKVLMYAVSILQSGVPSRFSGSGSGADFTLTISSLQPEDFATYYCQQSYSSPLTFGGGTKVEIK

Molecular target: Hemagglutinin of influenza A/Wisconsin/67/05 (H3N2), on inactivated whole virions (Influenza A virus A/Wisconsin/67/2005 …)
Test: ELISA, B cell culture supernatant on inactivated whole virions

Binder	OD450 [OD450]
B1	0.06
B2	0.07
B3	3.62
B4	3.58
B5	0.47
B6	0.06
B7	2.71
B8	0.07
B9	3.65
B10	0.07
B11	3.13
B12	0.07
B13	0.07
B14	3.69
B15	3.68

Residue numbers refer to the chain shown, from its start.
